# Assay results: patent US7132420B2, “Aspartic protease inhibitors” (The United States of America as represented by the …, priority 1999, dated 2006)
# How the values were obtained:
# HIV-1 protease = HIV-1 protease (Human immunodeficiency virus type 1 group M subtype B, UniProt P04585); experiment: HIV protease assay (Ki); conditions: read-out: HIV-1 Ki; Table 1
# HIV-1 = experiment: HIV antiviral assay (EC50); conditions: read-out: HIV-1 EC50; Table 1
# [1] = biological target: 82F/84V mutant HIV-1 protease (Human immunodeficiency virus type 1 group M subtype B, UniProt P04585, I572V/V570F); conditions: read-out: 82 F/84 V Ki; Table 1
# [2] = biological target: 84V mutant HIV-1 protease (Human immunodeficiency virus type 1 group M subtype B, UniProt P04585, I572V); experiment: HIV protease assay, 84V mutant (Ki); format: biochemical; conditions: read-out: 84 V Ki; Table 1
# Source text: This example illustrates the HIV-1 protease inhibition activity (Ki), HIV-1 antiviral data (EC50), and the toxicity against normal cells (IC50), for particular compounds of formula (I). The HIV protease assay was done according to the protocol described in Kageyama et al, Antimicrob. Agents Chemother., 37, 272 (1993). The HIV antiviral assay was done according to the protocol described in Weislow et al., J. National Cancer Inst. 81, 577 (1989).
Structure (SMILES),Ki (HIV-1 protease) [pM],EC50 (HIV-1) [pM],Ki [1] [pM],Ki [2] [pM]
Cc1cccc(C)c1OCC(=O)N[C@@H](Cc1ccccc1)[C@@H](O)C[C@H](CC(C)C)NC(=O)[C@H](C(C)C)N1CCCC1=O,8.3,400,,
CC(C)C[C@@H](C[C@H](O)[C@H](Cc1ccccc1)NC(=O)C(NC(=O)OCc1ccccn1)C(C)C)NC(=O)C(NC(=O)OCc1ccccn1)C(C)C (some centres unmarked),5,92000,25,23
COc1ccc(S(=O)(=O)N(Cc2ccccc2)[C@H](C(=O)N[C@@H](CC(C)C)C[C@H](O)[C@H](Cc2ccccc2)NC(=O)COc2c(C)cccc2C)C(C)C)cc1,4.1,50000,,
